PubChem BioAssay AID624099, ICCB-Longwood | 2012
In all, the deposit lists about 21,000 reagents; below is a part drawn at random. 497 of them (2.4%) were called active. 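Higher z means weaker E2 silencing; only reporter increases were scored, and knock-downs that hurt cell survival may mask genuine repressor factors.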 The numbers tell different reagents against one gene apart.

Test: 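Knock-downs relieving repression by E2 of an HPV18 LCR luciferase reporter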 (primary screen)
Cell system: human C33A cervical carcinoma cells (HPV-negative) stably expressing BPV1 E2 and an HPV18 LCR luciferase reporter
Reagents: siRNA pool against human genes, 40 nM
Time to read-out: 72 h
Measured: 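HPV18 LCR reporter light per well, converted to plate-wise z-scores that exclude control wells, and averaged over triplicate plates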
Reading the numbers: mean z-score and z-score: higher = stronger reporter signal, weaker E2 silencing
Active means: 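Hit if mean z-score reaches 2 and two or more of three replicate z-scores also reach 2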

Which result is listed for LOC399900?
mean z-score: -0.37; z-score, replicate A: -0.18; z-score, replicate B: -0.57; z-score, replicate C: -0.37; activity call: inactive

Which result is listed for FLJ27243 (retired record)?
mean z-score: 0.89; z-score, replicate A: 0.8; z-score, replicate B: 0.96; z-score, replicate C: 0.9; activity call: inactive

For CDK5R2 (cyclin dependent kinase 5 regulatory subunit 2), how do the results read?
mean z-score: -0.23; z-score, replicate A: -0.36; z-score, replicate B: -0.3; z-score, replicate C: -0.03; activity call: inactive

For SBNO2 (strawberry notch homolog 2), what was measured?
mean z-score: 0.47; z-score, replicate A: 0.22; z-score, replicate B: 0.62; z-score, replicate C: 0.58; activity call: inactive

For PLAT (plasminogen activator, tissue type), what was measured?
mean z-score: -1.13; z-score, replicate A: -1.32; z-score, replicate B: -1.24; z-score, replicate C: -0.84; activity call: inactive

For TMEM53 (transmembrane protein 53), what was measured?
mean z-score: 1.46; z-score, replicate A: 1.47; z-score, replicate B: 1.69; z-score, replicate C: 1.21; activity call: inactive

Which result is listed for CES1P1 (carboxylesterase 1 pseudogene 1)?
mean z-score: -0.35; z-score, replicate A: -0.45; z-score, replicate B: -0.54; z-score, replicate C: -0.07; activity call: inactive

For ZC3H12D (zinc finger CCCH-type containing 12D), how do the results read?
mean z-score: -0.72; z-score, replicate A: -0.9; z-score, replicate B: -0.54; z-score, replicate C: -0.71; activity call: inactive

For DRC1 (dynein regulatory complex subunit 1), what was measured?
mean z-score: 0.59; z-score, replicate A: 0.23; z-score, replicate B: 0.98; z-score, replicate C: 0.56; activity call: inactive

Which result is listed for BZW1P2 (basic leucine zipper and W2 domains 1 pseudogene 2)?
mean z-score: -0.72; z-score, replicate A: -0.76; z-score, replicate B: -0.64; z-score, replicate C: -0.75; activity call: inactive

Which result is listed for DPYD (dihydropyrimidine dehydrogenase)?
mean z-score: 0.21; z-score, replicate A: 0.58; z-score, replicate B: 0.13; z-score, replicate C: -0.09; activity call: inactive

With SHBG (sex hormone binding globulin), how do the results read?
mean z-score: 0.1; z-score, replicate A: 0.08; z-score, replicate B: 0.38; z-score, replicate C: -0.18; activity call: inactive

Which result is listed for CTAG1A (cancer/testis antigen 1A)?
mean z-score: 0.61; z-score, replicate A: 0.5; z-score, replicate B: 0.81; z-score, replicate C: 0.52; activity call: inactive

What did the screen give for UXS1 (UDP-glucuronate decarboxylase 1)?
mean z-score: 1.08; z-score, replicate A: 1.26; z-score, replicate B: 0.64; z-score, replicate C: 1.34; activity call: inactive

For SMYD4 (SET and MYND domain containing 4), how do the results read?
mean z-score: 1.19; z-score, replicate A: 0.99; z-score, replicate B: 1.72; z-score, replicate C: 0.86; activity call: inactive

What is on record for SMAGP (small cell adhesion glycoprotein)?
mean z-score: -0.31; z-score, replicate A: -0.46; z-score, replicate B: -0.34; z-score, replicate C: -0.12; activity call: inactive

For NARS1 (asparaginyl-tRNA synthetase 1), what was measured?
mean z-score: 2.78; z-score, replicate A: 2.63; z-score, replicate B: 2.95; z-score, replicate C: 2.76; activity call: active

Which result is listed for CDC6 (cell division cycle 6)?
mean z-score: 0.58; z-score, replicate A: 0.12; z-score, replicate B: 0.61; z-score, replicate C: 1; activity call: inactive

Which result is listed for ERICH3 (glutamate rich 3)?
mean z-score: -0.31; z-score, replicate A: -0.55; z-score, replicate B: -0.17; z-score, replicate C: -0.21; activity call: inactive

For SLC4A11, what was measured?
mean z-score: -0.33; z-score, replicate A: -0.28; z-score, replicate B: -0.13; z-score, replicate C: -0.58; activity call: inactive

With LOC401328 (retired record), how do the results read?
mean z-score: 0.09; z-score, replicate A: 0.12; z-score, replicate B: 0.15; z-score, replicate C: -0.01; activity call: inactive

For LRRIQ3 (leucine rich repeats and IQ motif containing 3), how do the results read?
mean z-score: 0.36; z-score, replicate A: 0.33; z-score, replicate B: 0.13; z-score, replicate C: 0.61; activity call: inactive

How did the screen score DLGAP3 (DLG associated protein 3)?
mean z-score: -0.22; z-score, replicate A: -0.23; z-score, replicate B: -0.22; z-score, replicate C: -0.2; activity call: inactive

For CRYM (crystallin mu), what was measured?
mean z-score: -1.28; z-score, replicate A: -1.25; z-score, replicate B: -1.54; z-score, replicate C: -1.05; activity call: inactive

For SHB (SH2 domain containing adaptor protein B), what was measured?
mean z-score: 1.24; z-score, replicate A: 1.58; z-score, replicate B: 1.35; z-score, replicate C: 0.78; activity call: inactive

With TRMT9B (tRNA methyltransferase 9B (putative)) #1, how do the results read?
mean z-score: -0.33; z-score, replicate A: -0.14; z-score, replicate B: -0.36; z-score, replicate C: -0.48; activity call: inactive

For TRMT9B (tRNA methyltransferase 9B (putative)) #2, what does the deposit list?
mean z-score: 0.37; z-score, replicate A: 0.3; z-score, replicate B: 0.05; z-score, replicate C: 0.77; activity call: inactive

Just “mean z-score” (2 entries from above):
UXS1 (UDP-glucuronate decarboxylase 1): 1.08
SMYD4 (SET and MYND domain containing 4): 1.19
